pEC50, pKi: −log10 of the molar value. Read-outs that look alike come from different tables or passages of the source. Structures were worked out from names or drawings and are uncertain.
What was measured:
[1] = test system: wild-type HIV-1 strain IIIB; test: Anti-HIV-1 Cell Culture Assay (EC50), XTT cytopathic effect in MT2 cells; format: cell-based
[2] = target: recombinant HIV-1 protease (Human immunodeficiency virus type 1 group M subtype B, UniProt P04585); test: HIV-1 Protease Enzyme Assay (Ki), fluorimetric hexapeptide substrate cleavage; format: biochemical; conditions: class symbols, Table 10; tested form: TFA

SMILES	pEC50 ([1]; read-out: Anti-HIV-1 Cell Culture Activity EC50, MT2 cells, wild-type HIV-1 IIIB, XTT, 5 days)	pEC50 ([1]; class symbols, Table 10, tested form: TFA)	pKi [2]
COc1ccc(S(=O)(=O)N(CC(C)C)C[C@@H](O)[C@H](Cc2ccc(OCP(=O)(Oc3ccccc3)Oc3ccccc3)cc2)NC(=O)O[C@H]2CO[C@H]3OCC[C@H]32)cc1 [drawing 651 R1=OPh R2=OPh]	8.64	–	–
CCOC(=O)[C@H](C)OP(=O)(CCNCc1ccc(C[C@H](NC(=O)O[C@H]2CO[C@H]3OCC[C@H]32)[C@H](O)CN(CC(C)C)S(=O)(=O)c2ccc(OC)cc2)cc1)Oc1ccccc1OCC (stereo partly drawn)	–	6.30 to 7.30	10.00 to 11.00

— US20060115815A1 (priority 2002, published 2006)
